Laboratory results: PubChem BioAssay AID1259414 (Drosophila RNAi Screening Center, 2018)
The deposit covers about 24,000 reagents; shown is an unselected part of those with a known target gene and a result. Of all reagents, about 1,210 (5%) were called active. 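Inactive calls also include excluded dsRNAs with several or no targets, genes unexpressed in JW18, and well A1, regardless of score.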 A number with no mark means an inactive call. The numbers tell different reagents against one gene apart. Names joined by + are all predicted targets of the reagent.

- Purpose: 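Host factors increasing or decreasing Wolbachia levels in cultured fly cells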 (primary screen)
- Cell system: Drosophila JW18 cells infected with Wolbachia
- Reagents: long dsRNA against Drosophila genes, 0.25 µg dsRNA per well of a 384-well plate
- Time to read-out: 5 days
- Treatment: cells persistently infected with Wolbachia before knock-down; no added drug
- Measured: 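Imaged fluorescence in situ signal for Wolbachia 23S rRNA per DAPI-counted host cell, given as a robust z-score within each plate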
- Reading the numbers: Wolbachia per cell robust z: higher = more Wolbachia per host cell than the plate typical
- Call rule: 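Active if absolute robust z reaches 1.5 in two or more of three replicates, leaving out multi- or no-target dsRNAs, genes unexpressed in JW18 and A1 wells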

gene | reagent | Wolbachia per cell robust z, rep 1 | Wolbachia per cell robust z, rep 2 | Wolbachia per cell robust z, rep 3
CG32462 + asRNA:CR43426 | 1 | 0.879 | 0.263 | -2.3
Ugt37C2 | 1 | -1.23 | -0.38 | 0.113
CG3107 | 1 | -1.01 | 0.578 | 0.0776
CG4570 | 1 | 0.488 | 0.38 | -0.69
CG15196 | 1 | 0.776 | -0.704 | -0.831
CG15196 | 2 | 0.437 | 0.7 | 0.505
Ugt37A2 | 1 | 1.48 | 1.09 | 1.23
Ugt37A2 | 2 | -6.81 | -8.1 | -2.47
bug | 1 | 1.41 | 1.06 | 0.622
aos | 1 | -0.699 | -1.21 | -0.978
aos | 2 | 1.16 | 0.241 | 0.31
CheB53b | 1 | -0.205 | 0.525 | 0.301
CheB53b | 2 | 0.235 | 0.79 | 0.86
Semp1 | 1 | 0.117 | -1.87 | 0.226
cg | 1 | -0.699 | -0.903 | -0.642
cg | 2 | 1.33 | -8.21 | 0.541
g | 1 | 0.781 | -0.158 | 0.232
g | 2 | -1.64 (active) | -1.87 | -0.695
CG13692 | 1 | -0.236 | 1.76 | -1.13
CG13692 | 2 | 0.122 | -0.132 | -1.45
NetA | 1 | 0.00636 | -0.121 | -0.548
CG11313 | 1 | -0.496 | -2.74 | 0.105
Saf6 | 1 | -3.04 | 0.679 | 1.15
CG33647 | 1 | -6.83 | -0.452 | -0.958
CG13994 | 1 | -1.67 | -0.309 | -0.0916
CG42540 | 1 | 0.429 | 1.15 | 0.947
CG42540 | 2 | -0.0884 | -0.961 | -7.15
CG42540 | 3 | 0.749 | -0.344 | -0.204
CG42540 | 4 | -0.179 | -0.372 | 0.359
CG13073 | 1 | -4.25 | 0.0315 | -0.837
CG13073 | 2 | -0.105 | 0.51 | -0.417
Sardh | 1 | 0.127 | -0.185 | -0.301
CG3091 | 1 | -0.867 | 1.42 | 1.3
TotM | 1 | 0.498 | -0.142 | 0.897
Sp1 | 1 | 0.358 | -0.293 | 0.893
Sp1 | 2 | 0.129 | -0.702 | 0.0434
Sp1 | 3 | 0.539 | -0.933 | 0.152
CG15711 | 1 | 0.271 | 0.213 | 0.963
Aps | 1 | 0.815 | -0.197 | -0.247
Aps | 2 | 0.648 | -0.173 | 0.438
CG12384 | 1 | 1.14 | 0.705 | 1.3
CG12384 | 2 | 0.0308 | 0.551 | 1.36
TTLL1B | 1 | -0.427 | 0.076 | -0.0484
yip3 | 1 | 0.863 | -0.337 | -0.413
lectin-33A | 1 | -1.25 (active) | -3.21 | -2.31
lectin-33A | 2 | -0.115 | -0.495 | -0.556
CG5246 | 1 | -0.829 | -0.346 | 0.931
CG5246 | 2 | 0.0481 | -0.628 | -4.16
Kyat | 1 | -0.372 | 1.34 | 0.324
snoRNA:Psi28S-2949 + Uhg4 | 1 | -0.313 | -1.96 | -1.18
beat-IIIa | 1 | 0.342 | -0.623 | 0.0514
beat-IIIa | 2 | 1.4 | -5.19 | 1.29
beat-IIIa | 3 | -0.398 | -0.176 | -2.6
NC2alpha | 1 | -0.218 | -0.323 | 0.262
NC2alpha | 2 | -0.0107 | 0.593 | 0.0992
Ran | 1 | -0.271 | 0.144 | 1.24
Ran | 2 | 0.916 | 1.47 | 0.39
Nedd4 | 1 | -0.839 | -0.0866 | -0.42
Nedd4 | 2 | 0.42 | -1.66 | -0.549
Nedd4 | 3 | -0.966 | 1.07 | 0.694
Prosbeta3 | 1 | 2.63 (active) | 1.87 | 0.909
GstD5 | 1 | 0.754 | -1.2 | -3.31
GstD5 | 2 | -2.14 (active) | -2.54 | -1.03
Cdc14 | 1 | -1.19 | 0.125 | 0.499
Cdc14 | 2 | -0.597 | -0.168 | 0.154
snoRNA:Psi28S-291 | 1 | -0.012 | 0.458 | 1.81
CG13151 | 1 | -3.54 | -0.817 | 0.193
CG14234 | 1 | -2.22 | -0.315 | -0.839
CG14234 | 2 | 0.0808 | 0.379 | 0.674

4 entries already listed, sorted by “Wolbachia per cell robust z, rep 1”, high to low:
gene | reagent | Wolbachia per cell robust z, rep 1 | Wolbachia per cell robust z, rep 2 | Wolbachia per cell robust z, rep 3
NetA | 1 | 0.00636 | -0.121 | -0.548
CG11313 | 1 | -0.496 | -2.74 | 0.105
Saf6 | 1 | -3.04 | 0.679 | 1.15
CG33647 | 1 | -6.83 | -0.452 | -0.958
